From ChEMBL document CHEMBL5728012, “Substituted nucleosides, nucleotides and analogs thereof” (2020)

Experiment: Inhibition Assay: The enzyme activity of NS5B570-Con1 (Delta-21) was measured as an incorporation of tritiated NMP into acid-insoluble RNA products. The complementary IRES (cIRES) RNA sequence was used as a template, corresponding to 377 nucleotides from the 3′-end of HCV (−) strand RNA of the Con-1 strain, with a base content of 21% Ade, 23% Ura, 28% Cyt, and 28% Gua. The cIRES RNA was transcribe

Row | SMILES | IC50 [µM]
1 | C#C[C@]1(F)[C@H](n2ccc(N)nc2=O)O[C@](F)(COP(=O)(O)OP(=O)(O)OP(=O)(O)O)[C@H]1O | < 1
2 | O=c1ccn([C@@H]2O[C@](F)(COP(=O)(O)OP(=O)(O)OP(=O)(O)O)[C@@H](O)[C@]2(F)CF)c(=O)[nH]1 | < 1
3 | C[C@]1(N=[N+]=N)[C@H](n2ccc(N)nc2=O)O[C@](F)(COP(=O)(O)OP(=O)(O)OP(=O)(O)O)[C@H]1O | < 1
